Anti-infective test results gathered from many reports (values: NIAID ChemDB through PubChem).

All rows: tests in culture; organism: Mycobacterium tuberculosis

Percent inhibition refers to the dose given; in toxicity tests it is the harm to the cells.

smiles	read by	strain or isolate	endpoint	tested at	value
Cc1c(CN2CCSCC2)cc(-c2ccccc2Cl)n1-c1ccccc1Cl			MIC		4 µg/mL
CCCCCCCCO[C@H]1O[C@H](CO[C@H]2O[C@H](CO)[C@@H](N)[C@@H]2O)[C@@H](O)[C@@H]1O		H37Rv	inhibition	6.25 µg/mL	4%
CCCCCCCCCCCCc1ccc(/C(C)=N/NC(=O)c2ccc[n+](C)c2)cc1.Cc1ccc(S(=O)(=O)[O-])cc1	BACTEC	H37Rv	inhibition	12.5 µg/mL	17%
CCCCCCCCCCCCCCCCNCCO		H37Rv	MIC		12.5 µg/mL
CC(C)C(C(=O)Nc1ccc(C2=CC(c3ccccc3[N+](=O)[O-])C(C#N)=C(N)O2)cc1)c1ccc(Cl)cc1	BACTEC	H37Rv	inhibition	6.25 µg/mL	0%
O=C1NC(CO)C(=O)NC1CO	BACTEC	H37Rv	MIC bound		>12.5 µg/mL
O=C(NN=C1CCCCC1)c1ccncc1			MIC		1 µg/mL
O=C1c2ccccc2-c2c1c1nnc(-c3ccccc3)n1c1ccc(Br)cc21	BACTEC / radiometric	H37Rv	inhibition	6.25 µg/mL	15%
Cn1c2ccccc2c2cc(C=NNC(N)=S)ccc21	fluorescence	H37Rv	EC50		1.6 µM
CC(=O)N1N=C(c2ccc(NC(=O)C(c3ccc(Cl)cc3)C(C)C)cc2)CC1c1ccco1	BACTEC	H37Rv	inhibition	6.25 µg/mL	0%
Cc1ccc2c(c1)C(=O)C(=O)N2CCCCCN1CCN(c2ccnc3cc(Cl)ccc23)CC1		MC2 6230	MIC99		52.52 µM
CCCCCCCCO[C@H]1O[C@H](CO[C@@H]2[C@@H](OCCCCCCCC)O[C@H](CO)[C@H]2N)[C@@H](O[C@@H]2O[C@H](O)[C@@H](N)[C@@H]2O)[C@@H]1O		H37Rv	inhibition	6.25 µg/mL	12%
Cn1c2ccccc2c2cc(C=NNc3nc(-c4ccc(F)cc4)cs3)ccc21	fluorescence	H37Rv	MIC		>200 µM
c1ccc2c(c1)Sc1ccccc1N2CC1CC2CCC23CCN13		H37Rv	MIC		8 µg/mL
N#Cc1ncc(C(Cl)(Cl)Cl)nc1Cl	BACTEC	H37Rv	inhibition	12.5 µg/mL	100%
CC(C)=CCC[C@H](C)C1CC[C@@H](C)c2c1cc(C)c(Br)c2O	resazurin	H37Rv	MIC		>200 µM
O=C(NCc1ccccc1)c1c(-c2ccccc2)[n+](=O)c2ccc(C(F)(F)F)cc2n1[O-]	resazurin	H37Rv	EC90		>100 µg/mL
Cn1c2ccccc2c2cc(C=NNc3nc(-c4cc5ccccc5oc4=O)cs3)ccc21	fluorescence	H37Rv	MIC		>200 µM
O=C(OCCNc1ccccc1)Oc1c(Cl)cc(Cl)c(Cl)c1[N+](=O)[O-]	BACTEC	H37Rv	inhibition	128 µg/mL	100%
CC(C)C(C(=O)Nc1ccc(C2=CC(c3ccccc3Cl)C(C#N)=C(N)O2)cc1)c1ccc(Cl)cc1	BACTEC	H37Rv	inhibition	6.25 µg/mL	20%
N=C(N)/C=C/C(=O)O	BACTEC	H37Rv	MIC		≥12.8 µg/mL
CCCC(=O)[C@]1(CCC2OCCO2)CC[C@@]2(c3ccccc3)ON12		H37Ra	MIC		>200 µg/mL
O=C1C(=O)N(CCCCCN2CCN(c3ccnc4cc(Cl)ccc34)CC2)c2ccccc21		MC2 6230	MIC99		43.29 µM
C/C(=C\CC[C@H](C)C1CC[C@@H](C)C2=C1C(=O)C(C)CC2=O)C(=O)O	resazurin	H37Rv	MIC		>200 µM
CN(C)[C@@H]1C(=O)C(C(N)=O)=C(O)[C@@]2(O)C(=O)C3=C(O)c4c(O)cccc4[C@@](C)(O)[C@H]3[C@H](O)[C@@H]12			MIC		5–10 µg/mL
O=C(N/N=C/c1ccc(O)cc1O)c1cccnc1	BACTEC	H37Rv	inhibition	12.5 µg/mL	18%
Cn1c2ccccc2c2cc(C=NNc3nc(-c4ccc(O)cc4)cs3)ccc21	fluorescence	H37Rv	EC50		41 µM
CCCCCCCCO[C@H]1O[C@H](CO)[C@@H](O[C@H]2O[C@H](CO)[C@@H](OC)[C@@H]2O)[C@@H]1O		H37Rv	inhibition	6.25 µg/mL	14%
Nc1ccc2oc3ccc(C(=O)O)cc3c(=O)c2c1		H37Rv	MIC		>32 µg/mL
CC(C)(C)OC(=O)NCC(=O)NC1c2ccsc2/C(=N/O)[C@H]1O	resazurin	H37Rv	MIC bound		>6.25 µg/mL
C=C/C(C)=C/C[C@H]1C(=C)CCC2[C@]1(C)CCC[C@]2(C)C(=O)O		H37Ra	EC50		14.6 µg/mL
CC(CN1c2ccccc2Sc2ccc(Cl)nc21)N(C)C		H37Rv	MIC		64 µg/mL
N#[N+]c1cn([C@H]2C[C@H](O)[C@@H](CO)O2)c(=O)nc1[O-]	resazurin	H37Rv	MIC bound		>6.25 µg/mL
CC(C)=C[C@@H]1C[C@H](C)C2CC[C@@H](C)c3c(O)cc(C)c1c32	resazurin	H37Rv	MIC		55.1 µM
CCCCCCCCCCCCCCCCN(CCO)C[C@@H]1O[C@@H]2OC(C)(C)O[C@@H]2[C@H]2OC(C)(C)O[C@H]21		H37Rv	MIC		6.25 µg/mL
C=C[C@@H](O)C#CC#CC/C=C\CCCCCCC	resazurin	H37Ra	EC50		15.3 µM
Cc1cccc2oc3ccccc3c(=O)c12		H37Rv	MIC		>32 µg/mL
O=C1c2ccccc2-c2c1c1nnnn1c1ccc(Br)cc21	BACTEC / radiometric	H37Rv	inhibition	6.25 µg/mL	46%
NNC(=O)Cc1nc2ccccc2[nH]c1=O	BACTEC	H37Rv	inhibition	12.5 µg/mL	30%
O=C(Nc1cccc(Cl)c1)c1ccc([N+](=O)[O-])o1		H37Ra	MIC		0.8 µg/mL
c1ccc2c(c1)Nc1ccccc1S2		H37Rv	MIC		128 µg/mL
Cc1cc(=O)[nH]c2cc(NN)ccc12	BACTEC	H37Rv	MIC bound		>12.5 µg/mL
Cc1ccc2c(=O)c3ccccc3oc2c1C		H37Rv	MIC		>8 µg/mL
NC(N)=Nc1nc2ccccc2[nH]1	BACTEC	H37Rv	inhibition	6.25 µg/mL	9%
Cc1ccc(-c2cc(CN3CCSCC3)c(C)n2-c2ccc(F)cc2)cc1		H37Rv	MIC		0.5 µg/mL
Cn1c2ccccc2c2cc(C=NNc3nc(-c4cccc(Cl)c4)cs3)ccc21	fluorescence	H37Rv	EC50		>200 µM
COC(=O)c1ccc2oc3ccccc3c(=O)c2c1		H37Rv	MIC		>16 µg/mL
CC(=O)N1N=C(c2ccc(NC(=O)C(c3ccc(Cl)cc3)C(C)C)cc2)CC1c1ccccc1	BACTEC	H37Rv	MIC		3.13 µg/mL
CO[C@H]1/C=C/O[C@@]2(C)Oc3c(C)c(O)c4c(O)c(c5c(c4c3C2=O)NC2(CCN(CC(C)C)CC2)N=5)=NC(=O)/C(C)=C\C=C\[C@H](C)[C@H](O)[C@@H](C)[C@@H](O)[C@@H](C)[C@H](OC(C)=O)[C@@H]1C		1620-6 (RIF-S)	MBC		0.125 µg/mL
O=C1C(=O)N(CCCCCCN2CCN(c3ccnc4cc(Cl)ccc34)CC2)c2ccccc21		MC2 6230	MIC99		52.52 µM
CCOC(=O)NC(=S)[S][Sb]([S]C(=S)NC(=O)OCC)[S]c1nc2ccc(N=Nc3ccc(NS(=O)(=O)c4ccc(NC(=O)C(Cl)Cl)cc4)cc3)cc2s1	BACTEC	H37Rv	MIC bound		≤128 µg/mL
COC(=O)c1ccc2c(=O)c3ccccc3oc2c1C(=O)OC		H37Rv	MIC		20 µg/mL
Cc1ccc2c(c1)C(=O)C(=O)N2CCCCN1CCN(c2ccnc3cc(Cl)ccc23)CC1		MC2 6230	MIC99		54.11 µM
NNC(=O)c1ccncc1	resazurin	H37Rv	MIC		0.05 µg/mL
Cc1c(CN2CCN(C)CC2)cc(-c2ccccc2F)n1-c1ccccc1F			MIC		8 µg/mL
CC(C)=CCC[C@H](C)C1CC[C@@H](C)C2=C1C(=O)C(C)=CC2=O	resazurin	H37Rv	MIC		>200 µM
NNC(=O)c1ccncc1		MC2 6230	MIC99		0.18 µM
Cc1c(CN2CCSCC2)cc(-c2ccccc2F)n1-c1cccc2ccccc12			MIC		4 µg/mL
NCC[C@H](O)C(=O)NC1C[C@H](N)[C@@H](OC2O[C@H](CN)[C@@H](O)C(O)[C@H]2O)[C@H](O)C1O[C@H]1O[C@H](CO)[C@@H](O)[C@H](N)[C@H]1O	resazurin	H37Rv	MIC		1 µg/mL
COC1C(=O)CCC2(CO2)C1(O)C1(C)OC1CC=C(C)C	BACTEC	H37Rv	inhibition	12.8 µg/mL	43%
COC(=O)CSc1nnc(-c2ccc([N+](=O)[O-])s2)s1	resazurin	H37Rv	MIC		0.78 µg/mL
C[C@@H]1CN(c2c(F)c(N)c3c(=O)c(C(=O)O)cn(C4CC4)c3c2F)C[C@H](C)N1		H37Rv	MIC		0.25 µg/mL
COc1ccc2c(c1)[n+](=O)c(C(=O)NCc1ccc(C(F)(F)F)cc1)c(C)n2[O-]	resazurin	H37Rv	EC90		>100 µg/mL
O=C1N2CCNc3ccccc3C(c3ccccc3)N1CC2	BACTEC	H37Rv	inhibition	12.5 µg/mL	22%
CC(=O)NC[C@H]1CN(c2ccc(N3CCOCC3)c(F)c2)C(=O)O1	resazurin	H37Rv	MIC		0.5 µg/mL
O=C1C(=O)N(CCCCCCCN2CCN(c3ccnc4cc(Cl)ccc34)CC2)c2ccc(Cl)cc21		MC2 6230	MIC99		167 µM
C/C(=C\CC[C@H](C)C1CC[C@@H](C)c2c(O)cc(C)cc21)CN	resazurin	H37Rv	MIC		24.8 µM
CCCCCCCCO[C@H]1O[C@H](CO)[C@@H](O[C@H]2O[C@H](CO)[C@@H](N=[N+]=[N-])[C@@H]2O)[C@@H]1O		H37Rv	EC50		>6.25 µg/mL
CC(C)=CCC[C@H](C)C1CC[C@@H](C)c2c(OC3C(CO)OC(O)C(O)C3O)cc(C)cc21	resazurin	H37Rv	MIC		>200 µM
O=S(=O)(O)c1c(Cl)c(Cl)c(O)c2ncccc12	resazurin	H37Rv	MIC bound		>6.25 µg/mL
CCCCC[C@@]1(C(=O)CCC)CC[C@@]2(c3ccccc3)ON12		H37Ra	MIC		100 µg/mL
O=C(CCSCCC(=O)NNc1ccccc1)NNc1ccccc1	BACTEC	H37Rv	inhibition	12.5 µg/mL	37%
CC(C)N=c1cc2n(-c3ccc(Cl)cc3)c3ccccc3nc-2cc1Nc1ccc(Cl)cc1	resazurin	H37Rv	MIC		0.24 µg/mL
CC(C)CCCC(C)C1CCC2C3CCC4CC5OC(C)(C)SC5CC4(C)C3CCC12C	BACTEC	H37Rv	inhibition	12.5 µg/mL	12%
C[C@H]1COc2c(N3CCN(C)CC3)c(F)cc3c(=O)c(C(=O)O)cn1c23			MIC		2 µg/mL
CCCCCCc1nnc2c3c(c4cc(Br)ccc4n12)-c1ccccc1C3=O	BACTEC / radiometric	H37Rv	inhibition	6.25 µg/mL	47%
O=[N+]([O-])c1ccc2nc(CCl)[nH]c2c1	resazurin	H37Rv	inhibition	6.25 µg/mL	12%
CCCC[C@@]1(C(=O)CCC)CC[C@@]2(c3ccccc3)ON12		H37Ra	MIC		100 µg/mL
O=C1C(=O)N(CCCCCCCN2CCN(c3ccnc4cc(Cl)ccc34)CC2)c2ccc(F)cc21		MC2 6230	MIC99		38.24 µM
CC(C)C(C(=O)Nc1ccc(C2=CC(c3ccc(O)cc3)C(C#N)=C(N)O2)cc1)c1ccc(Cl)cc1	BACTEC	H37Rv	inhibition	6.25 µg/mL	26%
COc1nc2[nH]c(C)cc(=O)c2c2ccccc12	BACTEC	H37Rv	MIC bound		>12.5 µg/mL
CC(C)C(C(=O)Nc1ccc(C2=CC(c3ccccc3)C(C#N)=C(N)O2)cc1)c1ccc(Cl)cc1	BACTEC	H37Rv	inhibition	6.25 µg/mL	10%
C/C(C=N)=C\CC[C@H](C)C1CC[C@@H](C)c2c(O)cc(C)cc21	resazurin	H37Rv	MIC		100.1 µM
O=[N+]([O-])c1ccc(/C=C(\c2ccc([N+](=O)[O-])o2)S(=O)(=O)c2ccccc2)cc1	BACTEC	H37Rv	inhibition	12.5 µg/mL	59%
CC(C)C(C(=O)Nc1ccc(C2=CC(/C=C/c3ccccc3)C(C#N)=C(N)O2)cc1)c1ccc(Cl)cc1	BACTEC	H37Rv	inhibition	6.25 µg/mL	2%

Repeating the first 7 entries:

Cc1c(CN2CCSCC2)cc(-c2ccccc2Cl)n1-c1ccccc1Cl ; endpoint: MIC ; value: 4 µg/mL
CCCCCCCCO[C@H]1O[C@H](CO[C@H]2O[C@H](CO)[C@@H](N)[C@@H]2O)[C@@H](O)[C@@H]1O ; strain or isolate: H37Rv ; endpoint: inhibition ; tested at: 6.25 µg/mL ; value: 4%
CCCCCCCCCCCCc1ccc(/C(C)=N/NC(=O)c2ccc[n+](C)c2)cc1.Cc1ccc(S(=O)(=O)[O-])cc1 ; read by: BACTEC ; strain or isolate: H37Rv ; endpoint: inhibition ; tested at: 12.5 µg/mL ; value: 17%
CCCCCCCCCCCCCCCCNCCO ; strain or isolate: H37Rv ; endpoint: MIC ; value: 12.5 µg/mL
CC(C)C(C(=O)Nc1ccc(C2=CC(c3ccccc3[N+](=O)[O-])C(C#N)=C(N)O2)cc1)c1ccc(Cl)cc1 ; read by: BACTEC ; strain or isolate: H37Rv ; endpoint: inhibition ; tested at: 6.25 µg/mL ; value: 0%
O=C1NC(CO)C(=O)NC1CO ; read by: BACTEC ; strain or isolate: H37Rv ; endpoint: MIC bound ; value: >12.5 µg/mL
O=C(NN=C1CCCCC1)c1ccncc1 ; endpoint: MIC ; value: 1 µg/mL

ECn: concentration that inhibits the pathogen or its effect by n%. MIC50, MIC90 and the like: level of inhibition, or share of isolates inhibited. Lines come from different laboratories, so protocols vary. a–b is a range or a potency band. MIC bound: limit read from a one-dose screen. Blank or dashed fields: not listed here.